Anti-infective test results gathered from many reports (values: NIAID ChemDB through PubChem).

Shared fields: growth or infection tests; agent: HIV-1; read by: cytopathic effect / XTT; endpoint: EC50

An empty or dashed field is not shown. Rows are shuffled and stem from different studies. ECn: concentration that inhibits the pathogen or its effect by n%.

smiles,cell line,strain,setting,changes,result
O=C(NC1c2ccccc2C[C@H]1O)[C@H](CCc1ccccc1)[C@@H](O)[C@H](O)[C@@H](CCc1ccccc1)C(=O)N[C@H]1c2ccccc2C[C@H]1O,MT-4,-,-,-,0.093 µM
O=C(NCCO)[C@H](OCc1ccccc1)[C@H](O)[C@@H](O)[C@@H](OCc1ccccc1)C(=O)N[C@H]1c2ccccc2C[C@H]1O,MT-4,-,-,-,60 µM
Cc1cn([C@H]2C[C@H](N=[N+]=[N-])[C@@H](CO)O2)c(=O)[nH]c1=O,MT-2,Site-directed mutant,-,RT-K65R Q151M,8.9 µM
CC(=O)Oc1ccc(/C=C/C(=O)O[C@@H](C(=O)O)[C@@H](OC(=O)/C=C/c2ccc(OC(C)=O)c(OC(C)=O)c2)C(=O)O)cc1OC(C)=O,CEM + CEM-SS,RF,-,-,16.85 µM
CNC(=O)[C@@H](NC(=O)[C@H](OCc1ccccc1)[C@H](O)[C@H](O)[C@@H](OCc1ccccc1)C(=O)N[C@H](C(=O)NC)C(C)C)C(C)C,MT-4,-,-,-,>10 µM
Cc1cn([C@H]2C[C@H](N=[N+]=[N-])[C@@H](CO)O2)c(=O)[nH]c1=O,PBMC,BaL,-,-,0.6 µM
Nc1nc(NC2CC2)c2ncn([C@H]3C=C[C@@H](CO)C3)c2n1,MT-2,Site-directed mutant,-,RT-K65R Y115F M184V,>3.44 µM
Nc1nc2c(ncn2[C@H]2CO[C@@H](CO)O2)c(=O)[nH]1,MT-2,NL4-3 Recombinant,-,-,1.6 µM
Cc1cn([C@H]2C[C@H](N=[N+]=[N-])[C@@H](COC(=O)CCC(=O)OC3CN(Cc4ccccc4)C(=O)N(Cc4ccccc4)C3)O2)c(=O)[nH]c1=O,CEM + CME-SS,-,-,-,0.074 µM
O=C(NCc1ccc(F)cc1F)[C@H](OCc1ccccc1)[C@H](O)[C@@H](O)[C@@H](OCc1ccccc1)C(=O)N[C@H]1c2ccccc2C[C@H]1O,MT-4,-,-,-,>100 µM
O=c1[nH]cnc2c1ncn2[C@H]1CC[C@@H](CO)O1,MT-2,HXB2D,-,-,0.004 µM
Nc1ncnc2c1ncn2CCOCP(=O)(O)O,MT-2,HXB2,-,-,5.2 µM
Cc1cn([C@H]2C[C@H](N=[N+]=[N-])[C@@H](CO)O2)c(=O)[nH]c1=O,CEM + CEM-SS,IIIB,-,RT-Y181C,0.01 µM
CC(=O)OCC1(COC(C)=O)CSS(=O)C1,CEM + CEM-SS,RF,-,-,>14.3 µM
Nc1nc2c(ncn2[C@H]2C=C[C@@H](CO)C2)c(=O)[nH]1,MT-2,IIIB,-,-,1.3 µM
CC(=O)Oc1ccc(/C=C/C(=O)OCCOC(=O)/C=C/c2ccc(OC(C)=O)c(OC(C)=O)c2)cc1OC(C)=O,CEM + CEM-SS,RF,-,-,>6.7 µM
Nc1ccn([C@H]2CC[C@@H](CO)O2)c(=O)n1,MT-2,HXB2D,-,-,0.0038 µM
Cc1cn([C@H]2C[C@H](N=[N+]=[N-])[C@@H](COC(=O)C3CNC(=O)N3)O2)c(=O)[nH]c1=O,CEM + CME-SS,-,-,-,0.0076 µM
CCC(C)[C@H]1C(=O)O[C@H](C(C)C)C(=O)N(C)[C@@H](C(C)CC)C(=O)O[C@H](C(C)C)C(=O)N(C)[C@@H](C(C)C)C(=O)O[C@H](C(C)C)C(=O)N1C,CEM + CEM-SS,-,-,-,0.01 µg/mL
Cc1cn([C@H]2C[C@H](N=[N+]=[N-])[C@@H](CO)O2)c(=O)[nH]c1=O,CEM + CEM-SS,McK,-,-,0.0006 µM
Cc1cn([C@H]2C=C[C@@H](CO)O2)c(=O)[nH]c1=O,MT-2,IIIB,-,-,4.8 µM
CCc1c(Sc2ccccn2)n(COCc2ccccc2)c(=O)[nH]c1=O,CEM + CEM-SS,4xAZT(RT-D67N K70R T215Y K219Q),-,RT-D67N K70R T215Y K219Q,0.008 µM
C[C@H](OC(=O)/C=C/c1ccc(O)c(O)c1)[C@H](C)OC(=O)/C=C/c1ccc(O)c(O)c1,CEM + CEM-SS,-,-,-,>3.3 µM
CNC(=O)[C@@H](NC(=O)[C@H](OCc1ccccc1)[C@H](O)[C@@H](O)[C@@H](OCc1ccccc1)C(=O)N[C@H](C(=O)NC)C(C)C)C(C)C,MT-4,-,-,-,1 µM
CC(=O)Oc1ccc(/C=C/C(=O)O[C@@H](C)[C@H](C)OC(=O)/C=C/c2ccc(OC(C)=O)c(OC(C)=O)c2)cc1OC(C)=O,CEM + CEM-SS,-,-,-,>5.45 µM
CC(=O)OCC1(COC(C)=O)CSSC1,CEM + CEM-SS,RF,-,-,>200 µM
CC[C@H](C)[C@@H](C(=O)O)n1sc2ccccc2c1=O,CEM + CEM-SS,RF,-,-,9 µM
CC(=O)Oc1ccc(/C=C/C(=O)O[C@@H](C)[C@H](C)OC(=O)/C=C/c2ccc(OC(C)=O)c(OC(C)=O)c2)cc1OC(C)=O,CEM + CEM-SS,RF,-,-,>5.58 µM
Cc1cn([C@H]2CC(N=[N+]=[N-])[C@@H](OCP(=O)(O)O)O2)c(=O)[nH]c1=O,MT-2,IIIB,-,-,>200 µM
O=C(/C=C/c1ccc(O)c(O)c1)OCCCOC(=O)/C=C/c1ccc(O)c(O)c1,CEM + CEM-SS,-,-,-,>13.5 µM
Cc1ccnc2c1NC(=O)c1cccnc1N2C1CC1,PBMC,CLADE D,clinical isolate,-,0.1 µM
CC(=O)Oc1ccc(/C=C/C(=O)NCCOC(=O)/C=C/c2ccc(OC(C)=O)c(OC(C)=O)c2)cc1OC(C)=O,CEM + CEM-SS,-,-,-,>14.8 µM
O=S1C[C@@H](O)[C@H](O)CS1,CEM + CEM-SS,RF,-,-,>59.3 µM
Cc1cn([C@H]2C[C@H](N=[N+]=[N-])[C@@H](COC(=O)CCC(=O)OC3CN(c4ccccc4)C(=O)N(c4ccccc4)C3)O2)c(=O)[nH]c1=O,CEM + CME-SS,-,-,-,0.016 µM
Nc1nc(=O)n([C@@H]2CS[C@H](CO)O2)cc1F,MT-2,LAI (K65R) Recombinant,-,-,10 µM
O=C(/C=C/c1ccc(O)c(O)c1)O[C@H]1CCCC[C@@H]1OC(=O)/C=C/c1ccc(O)c(O)c1,CEM + CEM-SS,RF,-,-,>5.67 µM
Nc1nc(NC2CC2)c2ncn([C@H]3C=C[C@@H](CO)C3)c2n1,MT-2,Site-directed mutant,-,RT-Q151M,5.25 µM
O=S1C[C@@H](O)[C@@H](O)CS1,CEM + CEM-SS,RF,-,-,>103.3 µM
CCCc1cc(=O)oc2c3c(c4c(c12)OC(C)(C)C=C4)O[C@H](C)[C@@H](C)[C@@H]3O,CEM + CEM-SS,IIIB HEPT-resistant (RT P236L),-,RT-P236L,1.7 µM
CC(=O)O[C@@H]1CSSC[C@H]1OC(C)=O,CEM + CEM-SS,RF,-,-,>200 µM
CC(C)(C)N[C@@H](Cc1ccccc1)C(=O)N[C@@H](Cc1ccccc1)[C@H](O)CNC[C@@H](O)[C@H](Cc1ccccc1)NC(=O)[C@H](Cc1ccccc1)NC(C)(C)C,CEM + CEM-SS,RF,-,-,>4 µM
O[C@@H]1CSSC[C@@H]1O,CEM + CEM-SS,RF,-,-,>20.1 µM
Nc1nc(=O)n([C@@H]2CS[C@H](CO)O2)cc1F,MT-2,Site-directed mutant,-,RT-K65R Y115F M184V,>161 µM
CC(C)(C)OC(=O)N[C@@H](Cc1ccccc1)[C@H](O)CNC[C@@H](O)[C@H](Cc1ccccc1)NC(=O)C1[C@H](O)CCC1(C)C,CEM + CEM-SS,RF,-,-,0.02 µM
CC(=O)O[C@H]1CSSC[C@H]1OC(C)=O,CEM + CEM-SS,RF,-,-,>200 µM